# Data as given in PubChem BioAssay AID624099 (ICCB-Longwood, 2012)
# Purpose: 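Human genes that papillomavirus E2 requires to repress the HPV18 LCR promoter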 (primary screen)
# System: human C33A cervical carcinoma cells (HPV-negative) stably expressing BPV1 E2 and an HPV18 LCR luciferase reporter
# Knock-down reagent: siRNA pool against human genes, 40 nM
# Duration: 72 h
# Measurement: 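HPV18 LCR reporter light per well, converted to plate-wise z-scores that exclude control wells, and averaged over triplicate plates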
# Reading the numbers: mean z-score and z-score: higher = stronger reporter signal, weaker E2 silencing
# Rule for the call: 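Hit if mean z-score reaches 2 and two or more of three replicate z-scores also reach 2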
# This is an unselected part of about 21,000 reagents tested. Of all reagents, 497 (2.4%) are marked active. 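Higher z means weaker E2 silencing; only reporter increases were scored, and knock-downs that hurt cell survival may mask genuine repressor factors.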 Reagents against one gene are numbered here. Reagent sequences are not shown.
target,pool no.,mean z-score,"z-score, replicate A","z-score, replicate B","z-score, replicate C",Outcome
SERINC2 (serine incorporator 2),1,-0.82,-0.98,-0.8,-0.68,inactive
ZKSCAN8 (zinc finger with KRAB and SCAN domains 8),1,0.51,0.28,0.72,0.53,inactive
"ALKBH6 (alkB homolog 6, nucleotide demethylase)",1,-0.26,-0.35,-0.35,-0.08,inactive
GCA (grancalcin),1,0.75,0.73,0.46,1.06,inactive
RALY (RALY heterogeneous nuclear ribonucleoprotein),1,0.9,1.17,0.83,0.72,inactive
LOC387901 (retired record),1,0.04,-0.15,0,0.28,inactive
GMPS (guanosine monophosphate synthase),1,0.56,0.71,0.41,0.55,inactive
CCNB2 (cyclin B2),1,0.25,0.25,0.28,0.21,inactive
LOC389029 (retired record),1,-0.84,-0.43,-0.89,-1.19,inactive
AADACP1 (arylacetamide deacetylase pseudogene 1),1,-1,-1.01,-1.14,-0.85,inactive
"HLF (HLF transcription factor, PAR bZIP family member)",1,0.22,0.33,0.21,0.12,inactive
GPRASP2 (G protein-coupled receptor associated sorting protein 2),1,-0.73,-1.12,-0.58,-0.47,inactive
ANKZF1 (ankyrin repeat and zinc finger peptidyl tRNA hydrolase 1),1,-0.61,-0.66,-0.58,-0.58,inactive
"RADX (RPA1 related single stranded DNA binding protein, X-linked)",1,0.34,0.48,0.44,0.1,inactive
PCDH18 (protocadherin 18),1,-0.02,0.58,-0.12,-0.51,inactive
OR8I2 (olfactory receptor family 8 subfamily I member 2),1,-0.22,0.3,-0.42,-0.55,inactive
PRRG4 (proline rich and Gla domain 4),1,1.29,1.14,1.37,1.36,inactive
GOPC (golgi associated PDZ and coiled-coil motif containing),1,-0.24,-0.51,-0.07,-0.14,inactive
KCNIP3 (potassium voltage-gated channel interacting protein 3),1,-1.65,-1.57,-1.64,-1.74,inactive
ATP13A3 (ATPase 13A3),1,-1.25,-0.95,-1.46,-1.33,inactive
DROSHA (drosha ribonuclease III),1,0.37,0.15,0.56,0.39,inactive
NKD2 (NKD inhibitor of Wnt signaling pathway 2),1,-0.25,-0.45,-0.16,-0.14,inactive
"VN2R1P (vomeronasal 2 receptor 1, pseudogene)",1,-0.18,-0.27,-0.09,-0.17,inactive
MED28 (mediator complex subunit 28),1,-4.36,-4.42,-4.41,-4.25,inactive
"CAPG (capping actin protein, gelsolin like)",1,-0.19,-0.85,0.23,0.05,inactive
"GOLGA8EP (golgin A8 family member E, pseudogene)",1,-0.16,-0.13,-0.18,-0.17,inactive
HAUS4 (HAUS augmin like complex subunit 4),1,-0.42,-0.57,0.08,-0.78,inactive
ANKDD1A (ankyrin repeat and death domain containing 1A),1,-0.06,0.19,-0.21,-0.17,inactive
IL18 (interleukin 18),1,1.69,1.75,1.72,1.6,inactive
PTGDR2 (prostaglandin D2 receptor 2),1,1.44,1.61,1.24,1.46,inactive
GATA3 (GATA binding protein 3),1,-0.43,0.06,-0.89,-0.47,inactive
ISG15 (ISG15 ubiquitin like modifier),1,0.68,0.98,0.59,0.47,inactive
FBXL6 (F-box and leucine rich repeat protein 6),1,0.2,0.16,0.24,0.19,inactive
UBAC1 (UBA domain containing 1),1,-0.95,-1.1,-0.99,-0.77,inactive
GID4 (GID complex subunit 4 homolog),1,0.63,0.66,0.67,0.57,inactive

Single entries from above:
ALKBH6 (alkB homolog 6, nucleotide demethylase), z-score, replicate B: -0.35
Entry of KCNIP3 (potassium voltage-gated channel interacting protein 3) under “z-score, replicate A”: -1.57
For “z-score, replicate A”, PTGDR2 (prostaglandin D2 receptor 2) has 1.61
HLF (HLF transcription factor, PAR bZIP family member), z-score, replicate A: 0.33
Value for ANKZF1 (ankyrin repeat and zinc finger peptidyl tRNA hydrolase 1) under “z-score, replicate C”: -0.58
Result for AADACP1 (arylacetamide deacetylase pseudogene 1) in “z-score, replicate A”: -1.01

More results:
target,pool no.,mean z-score,"z-score, replicate A","z-score, replicate B","z-score, replicate C",Outcome
APBB1 (amyloid beta precursor protein binding family B member 1),1,-0.22,-0.66,0.01,-0.02,inactive
CNOT3 (CCR4-NOT transcription complex subunit 3),1,-0.52,-1,-0.58,0.03,inactive
PSMB7 (proteasome 20S subunit beta 7),1,-0.62,-0.62,-0.75,-0.48,inactive
LINC00664 (long independently transcribed non-coding RNA 664),1,0.74,0.94,0.64,0.63,inactive
VPREB3 (V-set pre-B cell surrogate light chain 3),1,-0.36,-0.36,-0.54,-0.19,inactive
"B4GALNT3 (beta-1,4-N-acetyl-galactosaminyltransferase 3)",1,0.01,0.33,-0.13,-0.16,inactive
SPHK2 (sphingosine kinase 2),1,0.23,0,0.03,0.66,inactive
EFCAB8 (EF-hand calcium binding domain 8),1,-2.24,-1.97,-2.25,-2.51,inactive
LOC285307 (retired record),1,-1.58,-1.59,-1.23,-1.92,inactive
GCC2-AS1 (GCC2 antisense RNA 1),1,-0.21,-0.06,-0.42,-0.15,inactive
LOC391859 (retired record),1,0.22,0,0.41,0.26,inactive
E2F6P4 (E2F transcription factor 6 pseudogene 4),1,-0.49,-0.62,-0.08,-0.78,inactive
TRPV5,1,-0.65,-0.83,-0.48,-0.64,inactive
KIF18B (kinesin family member 18B),1,-0.27,-0.14,0.09,-0.75,inactive
RMI2 (RecQ mediated genome instability 2),1,0.71,0.75,0.39,1,inactive
STAU2 (staufen double-stranded RNA binding protein 2),1,-0.06,-0.36,0.13,0.04,inactive
"ZC3HAV1 (zinc finger CCCH-type containing, antiviral 1)",1,-0.03,-0.2,0.13,,inactive
C11orf65 (chromosome 11 open reading frame 65),1,-0.48,-0.91,-0.26,-0.25,inactive
GMEB1 (glucocorticoid modulatory element binding protein 1),1,0.81,0.98,0.48,0.97,inactive
RIOK2 (RIO kinase 2),1,-0.01,-0.25,0.19,0.02,inactive
AFTPH (aftiphilin),1,-0.12,0.03,0,-0.37,inactive
CRHBP (corticotropin releasing hormone binding protein),1,0.58,0.19,0.69,0.84,inactive
AKR1A1 (aldo-keto reductase family 1 member A1),1,0.86,0.69,1.03,0.85,inactive
POFUT4 (protein O-fucosyltransferase 4),1,1.21,1.17,1.02,1.43,inactive
KIAA1549L (KIAA1549 like),1,1.26,0.92,1.67,1.19,inactive
KIAA1549L (KIAA1549 like),2,-0.54,-0.49,-0.62,-0.51,inactive
LOC342600 (retired record),1,-1.14,-1.15,-1.5,-0.78,inactive
LOC387871 (retired record),1,-0.85,-0.8,-0.54,-1.21,inactive
CREBBP (CREB binding lysine acetyltransferase),1,1.71,1.66,1.77,1.69,inactive
CEP162 (centrosomal protein 162),1,-0.3,-0.36,-0.52,-0.01,inactive
TUBB (tubulin beta class I),1,-0.39,-0.25,-0.49,-0.42,inactive
BRAT1 (BRCA1 associated ATM activator 1),1,-0.15,-0.42,-0.15,0.13,inactive
SHMT1 (serine hydroxymethyltransferase 1),1,-1.8,-1.38,-1.84,-2.19,inactive
CFAP300 (cilia and flagella associated protein 300),1,-0.66,-0.59,-0.63,-0.77,inactive
LIG1 (DNA ligase 1),1,-1.31,-1.29,-1.29,-1.37,inactive
"CCSAP (centriole, cilia and spindle associated protein)",1,0.18,0.21,0.27,0.07,inactive
FLJ44874 (retired record),1,0.21,0.27,-0.09,0.46,inactive
SPINK7 (serine peptidase inhibitor Kazal type 7),1,0.21,0.23,0.5,-0.1,inactive
